Anti-infective test results gathered from many reports (values: NIAID ChemDB through PubChem).

Common to all: tests in culture; agent: Mycobacterium tuberculosis

An empty or dashed field is not shown.

smiles	strain	tested at	read by	read-out	result
O=Cc1c(-c2ccc(Br)cc2)nc2sc(-c3cccs3)nn12	H37Rv	6.25 µg/mL	BACTEC	inhibition	<90%
CC(=O)O[C@H]1C2=C(C(=O)C(C(=O)Oc3ccc([N+](=O)[O-])cc3)=C(C(C)C)C2=O)[C@@]2(C)CCCC(C)(C)[C@@H]2[C@@H]1O	H37Rv	-	MTT	MIC100	>25 µg/mL
CCCCCCCC/C=C/CCCCCC1CCCC(C)N1	PAS-R	-	-	MIC	6.3 µg/mL
CO[C@H]1/C=C/O[C@@]2(C)Oc3c(C)c(O)c4c(=O)c(c5oc6cc(N7CCN(CC(C)C)CC7)cc(=O)c6nc5c4c3=C2O)NC(=O)/C(C)=C\C=C\[C@H](C)[C@H](O)[C@@H](C)[C@@H](O)[C@@H](C)[C@H](OC(C)=O)[C@@H]1C	37 (rifampicin-resistant)	-	-	MIC	0.5 µg/mL
Nc1cc2nc3ccccc3sc-2cc1=O	H37Rv	-	BACTEC	MIC bound	≤12.5 µg/mL
O=Cc1c(-c2ccccc2)nc2sc(-c3cccs3)nn12	H37Rv	6.25 µg/mL	BACTEC	inhibition	<90%
Cc1ccccc1NCC(=O)Sc1nnc(-c2ccncc2)o1	H37Rv (ATCC 27294)	0.113 µM	BACTEC / radiometric	inhibition	63%
Cc1cccc(-c2nsc(SCC(=O)N3CCCCC3)n2)c1	H37Rv	-	low oxygen	MIC90	1.3 µM
CCCC(=O)O[C@@H]1C(OC(C)=O)C2=C(C(=O)C(=O)C(C(C)C)=C2O)[C@@]2(C)CCCC(C)(C)[C@H]12	H37Rv	-	MTT	MIC100	25 µg/mL
CCn1cc(C(=O)O)c(=O)c2cc(F)c(N3CCN(Cn4c(O)c(N=NC(N)=S)c5cc(Cl)ccc54)CC3)cc21	H37Rv	12.5 µg/mL	BACTEC	inhibition	97%
CC(CO)CCC1OC2CC3C4CCC5CC(O)CCC5(C)C4CCC3(C)C2C1C	H37Rv	12.5 µg/mL	BACTEC	inhibition	18%
Cc1ccccc1NC(=O)c1cccc2nc3ccccc3nc12	H37Rv 27294	-	-	MIC	0.39 µg/mL
O=C1CCC(N2C(=O)C3C4CCC(O4)C3C2=O)C(=O)O1	H37Rv	-	BACTEC	MIC bound	>12.5 µg/mL
COc1ccc(NC(=O)c2cccc3nc4ccccc4nc23)cc1OC	H37Rv 27294	-	-	MIC	0.39 µg/mL
CO[C@H]1/C=C/O[C@@]2(C)Oc3c(C)c(O)c4c(O)c(c(/C=N/N5CCN(C)CC5)c(O)c4c3C2=O)NC(=O)/C(C)=C\C=C\[C@H](C)[C@H](O)[C@@H](C)[C@@H](O)[C@@H](C)[C@H](OC(C)=O)[C@@H]1C	SIT149	-	resazurin	MIC	0.5 µg/mL
COC(=O)c1nc(N)[nH]c(=O)c1-c1ccc(Cl)cc1	H37Rv	-	BACTEC	MIC bound	>12.5 µg/mL
COc1cc(Cc2cnc(/N=C3\C(=O)N(CN4CCN(c5ccccc5)CC4)c4ccc(C)cc43)nc2N)cc(OC)c1OC	H37Rv	-	-	MIC	18 µg/mL
CCn1cc(C(=O)O)c(=O)c2cc(F)c(N3CCN(Cn4c(O)c(N=NC(N)=O)c5cc(Br)ccc54)CC3)cc21	H37Rv	12.5 µg/mL	BACTEC	inhibition	93%
Brc1ccc(-c2nc3sc(C4CCCCC4)nn3c2CN2CCCC2)cc1	H37Rv	6.25 µg/mL	BACTEC	inhibition	<90%
Cc1cccc(C)c1NC(=O)c1cccc2nc3ccccc3nc12	H37Rv 27294	-	-	MIC	3.12 µg/mL
Cc1cccc(NCC(=O)Sc2nnc(-c3ccncc3)o2)c1	H37Rv (ATCC 27294)	0.1138 µM	BACTEC / radiometric	inhibition	62%
COc1cc(Cc2cnc(/N=C3\C(=O)N(CN4CCN(c5ccc([N+](=O)[O-])cc5)CC4)c4ccc(C)cc43)nc2N)cc(OC)c1OC	H37Rv	-	-	MIC	30 µg/mL
CCCCCCN1C(=O)c2cc(Cl)nnc2Oc2ccc3ccccc3c21	H37Rv	-	BACTEC	EC50	>12.5 µg/mL
CCN(CC)CCCNc1nccc2c(C)c3[nH]c4ccncc4c3cc12	H37Rv	6.25 µg/mL	resazurin	inhibition	69%
CCCN(C(=O)COc1cc2c(O)c3c(O)c(C)c4c(c13)C(=O)[C@@](C)(O/C=C/[C@H](OC)[C@@H](C)[C@@H](OC(C)=O)[C@H](C)[C@H](O)[C@H](C)[C@@H](O)[C@@H](C)/C=C/C=C(/C)C(=O)N2)O4)N(CC)CC	H37Rv	-	-	MIC	0.15 µg/mL
OC[C@H]1O[C@@H](c2[nH]nc3c(=S)nc[nH]c23)[C@H](O)[C@@H]1O	H37Rv	-	BACTEC	MIC bound	>12.5 µg/mL
OCc1c(-c2ccccc2)nc2sc(C3CCCCC3)nn12	H37Rv	6.25 µg/mL	BACTEC	inhibition	100%
CNC(=O)OCc1nn(-c2ccc(Cl)c(Cl)c2)c(C)c1COC(=O)NC	H37Rv	6.25 µg/mL	-	inhibition	-2%
COc1ccc(OC(=O)C2=C(C(C)C)C(=O)C3=C(C2=O)[C@@]2(C)CCCC(C)(C)[C@@H]2[C@H](O)[C@H]3OC(C)=O)cc1	H37Rv	-	MTT	MIC100	3.12 µg/mL
Cc1ccc(-c2nc3ccccc3n2C(=O)/C=C/c2ccccc2)cc1	H37Rv	-	resazurin / visual reading	MIC100	1.6 µg/mL
CCOC(=O)c1[nH]c2ccccc2c1/C=N/NC(N)=S	H37Rv	-	BACTEC	MIC bound	>6.25 µg/mL
CCN(C(=O)COc1cc2c(O)c3c(O)c(C)c4c(c13)C(=O)[C@@](C)(O/C=C/[C@H](OC)[C@@H](C)[C@@H](OC(C)=O)[C@H](C)[C@H](O)[C@H](C)[C@@H](O)[C@@H](C)/C=C/C=C(/C)C(=O)N2)O4)c1ccccc1	H37Rv	-	-	MIC	0.18 µg/mL
O=C1CN(/N=C/c2ccc([N+](=O)[O-])o2)C(=O)N1	H37Rv	-	BACTEC	MIC bound	>12.5 µg/mL
O=C(/C=C/c1ccccc1)n1c(-c2ccc(Cl)cc2)nc2ccccc21	H37Rv	-	resazurin / visual reading	MIC100	>100 µg/mL
COc1cc(Cc2cnc(/N=C3\C(=O)N(CN4CCCC4)c4ccc(C)cc43)nc2N)cc(OC)c1OC	H37Rv	-	-	MIC	19 µg/mL
CN1C(=O)[C@@]23C[C@]4(n5cc(C[C@]67SS[C@@](CO)(C(=O)N6C)N(C)C7=O)c6ccccc65)c5ccccc5N[C@@H]4N2C(=O)[C@]1(CO)SS3	H37Rv	-	BACTEC	MIC bound	≤12.5 µg/mL
CCCCCCN1C(=O)c2ccnnc2Oc2ccccc21	H37Rv	12.5 µg/mL	BACTEC	inhibition	5%
O=C(/C=C/c1ccccc1)n1c(-c2ccccc2)nc2ccccc21	H37Rv	-	resazurin / visual reading	MIC100	6.25 µg/mL
Cc1ccc(C2=NNC(=O)/C(=C\c3ccccc3)C2)cc1	H37Rv	-	resazurin	MIC	25 µg/mL
O=C1c2cc(Cl)nnc2Oc2ccc(Cl)cc2N1CCCC1CCCCC1	H37Rv	-	BACTEC	EC50	<12.5 µg/mL
O=C(CNc1ccccc1Cl)Sc1nnc(-c2ccncc2)o1	H37Rv (ATCC 27294)	0.164 µM	BACTEC / radiometric	inhibition	12%
O/N=C/c1c(-c2ccccc2)nc2sc(C3CCCCC3)nn12	H37Rv	6.25 µg/mL	BACTEC	inhibition	<90%
COc1cc(/C=C2/CC(c3ccc(C)cc3)=NNC2=O)ccc1O	H37Rv	-	resazurin	MIC	12.5 µg/mL
CC(=O)O[C@H]1C2=C(C(=O)C(OC(=O)c3ccccc3)=C(C(C)C)C2=O)[C@@]2(C)CCCC(C)(C)[C@@H]2[C@@H]1OC(=O)c1ccccc1	H37Rv	-	MTT	MIC100	>25 µg/mL
CCn1cc(C(=O)O)c(=O)c2cc(F)c(N3CCN(Cn4c(O)c(N=NC(N)=S)c5ccccc54)CC3)cc21	H37Rv	-	BACTEC	EC50	<12.5 µg/mL
NC(=O)c1cnccn1	H37Rv	-	resazurin / visual reading	MIC100	3.12 µg/mL
CC(=O)O[C@H]1C2=C(C(=O)C(=O)C(C(C)C)=C2O)[C@@]2(C)CCCC(C)(C)[C@@H]2[C@@H]1C(=O)Oc1ccc([N+](=O)[O-])cc1	H37Rv	-	MTT	MIC100	25 µg/mL
CO[C@H]1/C=C/O[C@@]2(C)Oc3c(C)c(O)c4c(O)c(c(/C=N/N5CCN(C)CC5)c(O)c4c3C2=O)NC(=O)/C(C)=C\C=C\[C@H](C)[C@H](O)[C@@H](C)[C@@H](O)[C@@H](C)[C@H](OC(C)=O)[C@@H]1C	H37Rv 27294	-	-	MIC	0.78 µg/mL
NC[C@H]1O[C@H](O[C@H]2[C@H](O)[C@@H](O[C@H]3O[C@H](CO)[C@@H](O)[C@H](N)[C@H]3O)[C@H](N)C[C@@H]2N)[C@H](O)[C@@H](O)[C@@H]1O	Isolate CKN64-20 (rrs A1401G mutation)	-	-	MIC	>80 µg/mL
CO[C@H]1/C=C/O[C@@]2(C)Oc3c(C)c(O)c4c(O)c(cc(OCC(=O)N(CCCl)CCCl)c4c3C2=O)NC(=O)/C(C)=C\C=C\[C@H](C)[C@H](O)[C@@H](C)[C@@H](O)[C@@H](C)[C@H](OC(C)=O)[C@@H]1C	H37Rv	-	-	MIC	0.09 µg/mL
O=C(CNc1ccccc1O)Sc1nnc(-c2ccncc2)o1	H37Rv (ATCC 27294)	0.1184 µM	BACTEC / radiometric	inhibition	69%
Cc1cc(=Nc2ccc3c(c2)c(N)cc(C)[n+]3C)nc(N)n1C	H37Rv	-	BACTEC	MIC bound	>12.5 µg/mL
N#Cc1c(-c2ccccc2)nc2sc(C3CCCCC3)nn12	H37Rv	6.25 µg/mL	BACTEC	inhibition	<90%
CN(C)/N=N/c1[nH]cnc1C(N)=O.[Cl][Cu][Cl]	H37Rv	-	BACTEC	MIC bound	≤12.5 µg/mL
CCCCCN1C(=O)c2ccnnc2Oc2cc(C)ccc21	H37Rv	12.5 µg/mL	BACTEC	inhibition	34%
CO[C@H]1/C=C/O[C@@]2(C)Oc3c(C)c(O)c4c(O)c(cc(OCC(=O)N(Cc5ccccc5)Cc5ccccc5)c4c3C2=O)NC(=O)/C(C)=C\C=C\[C@H](C)[C@H](O)[C@@H](C)[C@@H](O)[C@@H](C)[C@H](OC(C)=O)[C@@H]1C	H37Rv	-	-	MIC	0.37 µg/mL
Brc1ccc(-c2nc3sc(-c4ccco4)nn3c2CN2CCCCC2)cc1	H37Rv	6.25 µg/mL	BACTEC	inhibition	<90%
COc1ccc(NC(=O)c2cccc3nc4ccccc4nc23)cc1	H37Rv 27294	-	-	MIC	0.78 µg/mL
CC(=O)OC1=C(C(C)C)C(=O)C2=C(C1=O)[C@@]1(C)CCCC(C)(C)[C@@H]1[C@H](OC(C)=O)[C@H]2OC(C)=O	MDR	-	MTT	MIC100	12.5 µg/mL
COc1cc(/C=C2/CC(c3ccc(Cl)cc3)=NNC2=O)ccc1O	H37Rv	-	resazurin	MIC	6.25 µg/mL
Brc1ccc(-c2nc3sc(C4CCCCC4)nn3c2CC2CCOCC2)cc1	H37Rv	6.25 µg/mL	BACTEC	inhibition	<90%
NS(=O)(=O)c1ccc(N2C(=S)N(c3ccccc3)C(=Nc3ccccc3)C2=Nc2ccccc2)cc1	H37Rv	-	resazurin	MIC	>12.5 µg/mL
COc1cc(Cc2cnc(/N=C3\C(=O)N(CN4CCN(c5cccc(C(F)(F)F)c5)CC4)c4ccc(C)cc43)nc2N)cc(OC)c1OC	H37Rv	-	-	MIC	21 µg/mL
C/C=C/C=C/C=C/C(O)C(C)C(CCC(C)C1OC(=O)C=CC1C)OP(=O)([O-])O.[Na+]	H37Rv	-	BACTEC	MIC bound	>12.5 µg/mL
O=C(CNc1ccccn1)Sc1nnc(-c2ccncc2)o1	H37Rv (ATCC 27294)	-	broth dilution / resazurin	MIC99	5.77 µg/mL
C.COc1ccc([C@H]2OC(=O)C3C2C(=O)O[C@@H]3c2ccc(OC)c(OC)c2)cc1OC	H37Rv	-	BACTEC	MIC bound	>12.5 µg/mL
COc1ccc(/C=C2/CC(c3ccc(C)cc3)=NNC2=O)cc1	H37Rv	-	resazurin	MIC	25 µg/mL
CCOC(=O)c1cn2c3c(cccc3c1=O)CC2	H37Rv	-	BACTEC	MIC bound	>12.5 µg/mL
CO[C@H]1/C=C/O[C@@]2(C)Oc3c(C)c(O)c4c(O)c(cc(OCC(=O)N(C)CCC#N)c4c3C2=O)NC(=O)/C(C)=C\C=C\[C@H](C)[C@H](O)[C@@H](C)[C@@H](O)[C@@H](C)[C@H](OC(C)=O)[C@@H]1C	H37Rv	-	-	MIC	0.09 µg/mL
Nc1nc(-c2cccc([N+](=O)[O-])c2)c(N=Nc2ccccc2)s1	H37Rv	-	BACTEC	MIC bound	>6.25 µg/mL
Cc1cccnc1Nc1nc(-c2ccccn2)cs1	H37Rv	-	low oxygen	MIC90	0.4 µM
C/C(=N\NC(=O)c1ccccc1O)c1cccc(/C(C)=N/NC(=O)c2ccccc2O)n1	H37Rv	-	BACTEC	MIC bound	>12.5 µg/mL
COc1ccc(/C=C2/CC(c3ccc(Cl)cc3)=NNC2=O)cc1	H37Rv	-	resazurin	MIC	25 µg/mL
C/C=C/C(C(=O)NC(N)=O)C(C)C	H37Rv	-	BACTEC	MIC bound	>12.5 µg/mL
O=C1CSC(c2c(-c3ccccc3)nc3sc(C4CCCCC4)nn23)N1c1ccccc1	H37Rv	6.25 µg/mL	BACTEC	inhibition	<90%

ECn is the concentration giving n% inhibition of infection, replication or growth. A number after MIC or MFC names an inhibition level or a share of isolates. Inhibition is in % at the dose shown (toxicity tests: loss of growth or viability). MIC bound: limit read from a one-dose screen. Neighbouring rows are from separate reports.